Experimental data published in patent US8354498B2, “CD4 mimic peptides and their uses” (Commissariat a l'Energie Atomique, priority 2006, dated 2013).

How the values were obtained:
[1] = system: HIV strains; test: Neutralization assays, comparison over HIV strains; format: cell-based; conditions: depending on HIV strains
Method: To analyze the inhibitory activity of the new compounds, both CD4M47 and CD4M48 were compared to their parent molecules (respectively CD4M33 and [Phe^23]M33) and sCD4 in neutralization cell line assay. The susceptibility of various envelope clones to be inhibited by CD4-mimic peptides was analyzed using a broadly sensitive HIV-entry assay able to give quantified infection within a single cycle of replication (Salzwedel et al., J. Virol., 2000, 74, 326-333). Using JC53BL-13 indicator cell line, HIV neutralization escapes were evaluated with various isolate envelopes, not only of HIV-1 type but also of HIV-2 and SIV types (Wei et al., Nature, 2003, 422, 307-312).
Sensitivity to neutralization by mini-proteins varied substantially depending on HIV strains, but remained lower than for CD4. Stabilizing of the type II′ β-turn in CD4M48 leads to a significant increase (up to 10 fold) of its neutralization potency of HIV infection, compared to its parent molecule [Phe^23]M33. The addition of a biphenyl moiety at position 23 in CD4M47 peptide led to more subtle differences, depending mainly on the isolates. For highly sensitive isolates from group M such as NL4.3, YU2, MN-8, MN-25, the biphenyl moiety always provided an improvement in efficiency compared to phenyl group. […]

[2] = system: gp120
Method: Fluorescence anisotropy was determined after 40 min equilibration time at room temperature, using 485 nm excitation and 530 nm emission filters and an additional 505 nm dichroic filter. All experiments were performed in duplicate.
Fluorescence anisotropy measurements were based on the assessment of the rotational motions of species. Whereas the CD4-mimic tumbles very fast in solution randomizing excited molecules, once it binds to gp120 envelopes, the excited mini-protein stays aligned during the process of emission and as a result, emitted light is polarized.

[3] = biological target: gp120 Bal; test: Direct binding by fluorescence anisotropy of Alexa-labeled mini-proteins; design: species or system HIV-1; conditions: Alexa labeled mini-protein 0.5 nM; gp120 Bal (R5-tropic); read-out: Dissociation constant (Kd)
Method: Binding assays by fluorescence anisotropy were made in a LJL Analyst (LJL BIOSYSTEMS) microplate reader using 384-wells plates. All peptides were diluted in 10 mM sodium phosphate buffer, pH 7.0, with 135 mM NaCl and 0.05% Tween 20.
Direct binding assays of fluorescent peptides were performed in triplicates by adding 10 μL of 0.5 nM Alexa-labeled mini-proteins and 10 μL of serial dilutions (two-thirds dilutions in 16 wells, starting at 200 nM) of gp120 SF2, SF162, BaL, IIIB and YU2. Collected data were fitted to the following equation using a non-linear regression program (Prism, GraphPad software Inc.):
[formula] where A, Af and Ab are respectively the measured, free and fully bounded anisotropy, Lt is the total labeled mini-protein concentration, Rt is the total gp120 concentration and Kd the thermodynamic dissociation constant. d) FACS Analysis of CD4M48-Induced Envelope Conformational Change

[4] = biological target: T1, gp120SF162 binding to CCR5+-CHO cells (Human immunodeficiency virus type 1 group M subtype B, UniProt P19550); test: FACS analysis of gp120 binding to CCR5+-CHO cells in presence of CD4 mimics; format: cell-based, HIV-1; conditions: gp120SF162 pre-incubated with mini-protein
T1 construct: R5-tropic SF162 and Dual-tropic SF2 recombinant gp120s were produced in mammalian cells (CHO); made in house; host or cells: gp120: CHO; CCR5: transfected CHO-K1 cells
Source text: FIG. 7 illustrates the FACS analysis of the binding of recombinant envelope gp120 to CCR5^+-CHO cells in absence or in presence of various CD4-mimics, in comparison with soluble CD4.
FIG. 13 illustrates the FACS analysis of the binding of recombinant envelope gp120 to CCR5^+-CHO cells in absence or in presence of various CD4-mimics in comparison with soluble CD4.
FIG. 19 illustrates the FACS analysis of the binding of gp120SF162 to CCR5^+ CHO cells in absence or in presence of CD4M48 monomer or hetero-bivalent CD4M48−heparin. The ability of gp120 in complex with CD4M48 alone, CD4M48 covalently bound to heparin (noted M48−heparin), CD4M48 in presence of free LMW heparin (1:1) (noted M48+heparin) to bind to cellular co-receptor CCR5 was investigated.
Adherent CHO-K1 cells expressing CCR5 (Samson et al., Biochemistry, 1996, 35, 3362-3367; Blanpain et al., Blood, 2000, 96, 1638-1645) were used to analyze gp120SF162 conformational change in complex with different mini-proteins, by FACS (BECKTON DICKINSON). Briefly, 0.03 μg of gp120SF162 were pre-incubated overnight at 4° C. in absence or in presence of 10 nM CD4 or 10 nM mini-proteins and further added to 2×10^5 cells in HAM F12 supplemented with 10% SVF, 1% penicillin/streptomycin. After 1 h incubation at room temperature, cells were washed 3 times with phosphate buffer saline (PBS) containing 5% BSA. Bound gp120 was subsequently stained with D7324 antibody (AALTO BIO REAGENTS) washed and labeled with goat anti-sheep secondary antibody conjugated to phycoerythrin (PE) (R&D SYSTEMS). After final wash, cells were analyzed for envelope binding by FACS.

## CC(C)C[C@@H]1NC(=O)CNC(=O)[C@H](CC(C)C)NC(=O)[C@H](CO)NC(=O)[C@H](CCCCN)NC(=O)[C@@H]2CSSC[C@@H](C(=O)N[C@H](C(N)=O)C(C)C)NC(=O)[C@H](C)NC(=O)[C@@H]3CSSC[C@H](NC(=O)[C@H](Cc4ccccc4)NC(=O)[C@H](Cc4c[nH]cn4)NC(=O)[C@H](CC(C)C)NC(=O)[C@H](CC(N)=O)NC(=O)CCSSC[C@H](NC(=O)[C@H](CCCNC(=N)N)NC(=O)CNC(=O)[C@H](CC(C)C)NC1=O)C(=O)N[C@@H](C)C(=O)N1CCC[C@@H]1C(=O)N[C@@H]([C@@H](C)O)C(=O)N[C@@H](Cc1ccccc1)C(=O)N3)C(=O)N[C@@H](CCC(N)=O)C(=O)N[C@@H](CC(C)C)C(=O)N[C@@H](CCCNC(=N)N)C(=O)N2 [CD4M48]
[1]
  Increase of neutralization potency of HIV infection compared to parent molecule [Phe^23]M33: up to 10 fold
[2]
  Inhibition of CD4M33-F1 binding to gp120 (competitive polarization): increased efficiency compared to CD4M33 and sCD4
[3]
  Kd: 5.46 ± 0.23 nM
[4]
  Binding of gp120 to CCR5+-CHO cells induced by the mimic (conformational change of gp120): same recognizing of CCR5^+-CHO cells as CD4
